Values from PubChem BioAssay AID504761 (Drosophila RNAi Screening Center, 2011).
Aim: 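Insect host genes that dengue virus relies on to spread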 (primary screen). Cell system: D.Mel-2 cells from Drosophila. Reagent: long dsRNA against Drosophila genes. Challenge: infection with dengue virus type 2; dose and infection time not stated. Measurement: 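Per well on two replicate plates, imaging gave the percent of cells positive for viral envelope protein, ranked by infection, and a nuclear count of cells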. Scale: infection score: higher = more virus-infected cells; cell count: higher = more cells in the well. Active means: 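Very low infection ranking in both replicate wells (chance probability at most 0.065), then a retest showing infection dropped 1.5-fold or more at p below 0.05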. Meaning of the calls: active = confirmed: knock-down lowers infection; inactive = not picked or not confirmed.
The screen tested about 22,000 reagents; shown is an unselected part of those that have a named target and a result. In the full data, 116 (0.52%) were called active. 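Calls depend on retest data that are not deposited; infection was ranked per plate without normalising between plates; the unit of the infection score is not given.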 Raw values vary from plate to plate and are shown uncorrected. Entries without a mark were called inactive. The numbers tell different reagents against one gene apart. No sequences are given here. Not given: the amount of reagent, the time to read-out.

Aps (GeneID 39226) | infection score, replicate 1 = 2.59; infection score, replicate 2 = 3.36; cell count, replicate 1 = 6184; cell count, replicate 2 = 5839
Rgk1 (retired record) (GeneID 37219) #1 | infection score, replicate 1 = 3.46; infection score, replicate 2 = 0.41; cell count, replicate 1 = 5891; cell count, replicate 2 = 6586
Rgk1 (retired record) (GeneID 37219) #2 | infection score, replicate 1 = 3.97; infection score, replicate 2 = 6.94; cell count, replicate 1 = 6500; cell count, replicate 2 = 5919
CG32650 (GeneID 326227) | infection score, replicate 1 = 1.34; infection score, replicate 2 = 3.15; cell count, replicate 1 = 6732; cell count, replicate 2 = 6797
bsk (GeneID 44801) | infection score, replicate 1 = 20.5; infection score, replicate 2 = 12.1; cell count, replicate 1 = 6292; cell count, replicate 2 = 6470
CG12480 (GeneID 32359) #1 | infection score, replicate 1 = 20.1; infection score, replicate 2 = 13.2; cell count, replicate 1 = 5851; cell count, replicate 2 = 6198
CG12480 (GeneID 32359) #2 | infection score, replicate 1 = 29.8; infection score, replicate 2 = 20.5; cell count, replicate 1 = 6305; cell count, replicate 2 = 6035

Next part; the last 2 above are carried over.
CG12480 (GeneID 32359) #1 | infection score, replicate 1 = 20.1; infection score, replicate 2 = 13.2; cell count, replicate 1 = 5851; cell count, replicate 2 = 6198
CG12480 (GeneID 32359) #2 | infection score, replicate 1 = 29.8; infection score, replicate 2 = 20.5; cell count, replicate 1 = 6305; cell count, replicate 2 = 6035
Adck1 (GeneID 37938) | infection score, replicate 1 = 4.53; infection score, replicate 2 = 6.25; cell count, replicate 1 = 6314; cell count, replicate 2 = 6063
CCAP (GeneID 42683) | infection score, replicate 1 = 4.28; infection score, replicate 2 = 4.97; cell count, replicate 1 = 5729; cell count, replicate 2 = 6418
RabX5 (GeneID 38209) #1 | infection score, replicate 1 = 2; infection score, replicate 2 = 2.72; cell count, replicate 1 = 6191; cell count, replicate 2 = 5626
RabX5 (GeneID 38209) #2 | cell count, replicate 1 = 400; cell count, replicate 2 = 228
Fbp2 (GeneID 34259) #1 | infection score, replicate 1 = 14.9; infection score, replicate 2 = 14.5; cell count, replicate 1 = 6270; cell count, replicate 2 = 5680
Fbp2 (GeneID 34259) #2 | infection score, replicate 1 = 6.4; cell count, replicate 1 = 2938; cell count, replicate 2 = 296
